Fold greater affinity than the F(ab)2 of VRC01 data for one substance are collected here from publication PMC5017893.

For this assay, the target named is recombinant MUC16 (aa21005-21992; R&D Systems). Briefly: SPR. Background: SPR reads the build-up and loss of mass on a sensor chip optically.

For “Fc fragment of VRC01 (domain or fragment)”, the fold greater affinity than the F(ab)2 of VRC01 amounted to 8 fold.
